Measured values: patent US7214497

Target: human VESPR (Viral Encoded Semaphorin Protein Receptor), native, on human cells, human, O60486 35-1568
Assay: flow cytometry, 5 ug/mL A39R/Fc on U937 cells (Human Monocyte-Type Cell)

“Ectromelia Semaphorin A39R/immunoglobulin fusion protein (A39R/Fc)” was tested, and the result was “binds”.
